Pooled drug test results. Numbers come from NIAID ChemDB, via PubChem.

Common to all: whole-cell or culture tests; species: Mycobacterium tuberculosis

MIC bound comes from a single tested concentration. An empty or dashed field is not shown. A number after MIC or MFC names an inhibition level or a share of isolates. ECn: concentration that inhibits the pathogen or its effect by n%. a–b is a range or a potency band. Conditions beyond the fields shown may differ between rows. Inhibition is in % at the dose shown (toxicity tests: loss of growth or viability). For "inactive" no cut-off is given.

compound,changes,read-out,strain or isolate,method,dose,result
Cc1cc(CN2CCN(C)CC2)c(C)n1C1CCCCC1,,MIC,H37Rv,,,<12.5 µg/mL
O=C(NN1CCN(c2cc3c(cc2F)c(=O)c(C(=O)O)cn3C2CC2)CC1)c1ccc(Br)cc1,,MIC90,H37Rv,fluorescence,,>50 µM
CC[C@H]1OC(=O)[C@H](C)[C@@H](O[C@H]2C[C@@](C)(OC)[C@@H](O)[C@H](C)O2)[C@H](C)[C@@H](O[C@@H]2O[C@H](C)C[C@H](N(C)C)[C@H]2O)[C@](C)(OC)C[C@@H](C)C(=O)[C@H](C)[C@@H](O)[C@]1(C)O,,MIC,H37Rv,,,>4 µg/mL
CCOC(=O)c1cc(C)nnc1C(=O)OCC,,inhibition,H37Rv,BACTEC,12.5 µg/mL,0%
SCCC1CS1,,MIC,H37Rv,,,50 µg/mL
Nc1c(NC(=O)/C=C/c2ccccc2)cc(Cl)cc1[N+](=O)[O-],,MIC,H37Rv,broth dilution,,>100 µg/mL
O=C(NNCc1ccccc1)c1ccccn1,,MIC,H37Rv,BACTEC,,12.5 µg/mL
CC(C)CC(C)NCc1ccccc1,,MIC,H37Rv,,,250 µg/mL
O=c1ccc2c(Cl)cc(N3CCOCC3)nc2[nH]1,,EC50,H37Rv,BACTEC,,>6.25 µg/mL
CC(C)CCCNCc1ccccc1,,MIC,H37Rv,,,125 µg/mL
CC[C@H]1OC(=O)[C@H](C)[C@@H](O[C@H]2C[C@@](C)(OC)[C@@H](O)[C@H](C)O2)[C@H](C)[C@@H](O[C@@H]2O[C@H](C)C[C@H](N(C)C)[C@H]2O)[C@](C)(OC)C[C@@H](C)C(=O)[C@H](C)[C@@H](O)[C@]1(C)O,,MIC50,22 strains (rifampin- isoniazid-resistant),,,6.25 µg/mL
O=C(Nc1sc(-c2ccc(OCc3c(Cl)cccc3Cl)cc2)cc1C(=O)O)c1cccc(Cl)c1,,MIC,H37Rv,resazurin,,6.6 µM
CCCCCCn1c(-c2ccc(Cl)cc2)cc(CN2CCN(C)CC2)c1C,,MIC,103471,,,8 µg/mL
COc1ccc2cc([N+](=O)[O-])c3ccc(=O)oc3c2c1,,MIC,MTY147,resazurin,,25 µg/mL
Cc1ccc2nc(CC(O)(c3ccccc3)c3ccccc3)ccc2c1,,MIC bound,H37Rv,BACTEC,,>12.5 µg/mL
CCCCCCNc1sc(-c2ccc(OCc3c(Cl)cccc3Cl)cc2)cc1C(=O)O,,EC50,H37Rv,resazurin,,55.59 µM
NC(=O)N=Nc1ccc(NNC(N)=O)cc1,,inhibition,H37Rv,BACTEC,12.5 µg/mL,10%
CO[C@H]1/C=C/O[C@@]2(C)Oc3c(C)c(O)c4c(O)c(c(/C=N/N5CCN(C)CC5)c(O)c4c3C2=O)NC(=O)/C(C)=C\C=C\[C@H](C)[C@H](O)[C@@H](C)[C@@H](O)[C@@H](C)[C@H](OC(C)=O)[C@@H]1C,,MIC,H37Rv,broth dilution,,1.2 µg/mL
CCCCS(=O)(=O)Nc1ccc2[nH]c(C(=O)NC3CCCC3)c(C)c2c1,,MIC90,H37Rv,resazurin,,6.25 µM
S=c1n(-c2ccc(Cl)cc2)c2/c(=N/Nc3cc(Cl)ccc3Cl)c(n1-c1ccccn1)=NCCN=2,,MIC bound,H37Rv,BACTEC,,>12.5 µg/mL
C[C@H]1COc2c(N3CCN(C)CC3)c(F)cc3c(=O)c(C(=O)O)cn1c23,,MIC90,18 strains (levofloxacin-resistant),,,12.5 µg/mL
C=CCNc1sc(-c2ccc(OCc3c(Cl)cccc3Cl)cc2)cc1C(=O)O,,MIC,H37Rv,resazurin,,14.7 µM
O=c1oc2nc3ccc(Cl)cc3c(=O)n2c2ccc(Cl)cc12,,MIC bound,H37Rv,BACTEC,,>12.5 µg/mL
COc1ccccc1C(=O)Nc1sc(-c2ccc(OCc3c(Cl)cccc3Cl)cc2)cc1C(=O)O,,EC50,H37Rv,resazurin,,50.66 µM
CO[C@H]1/C=C/O[C@@]2(C)Oc3c(C)c(O)c4c(=O)c(c5oc6cc(N7CCN(CC(C)C)CC7)cc(=O)c6nc5c4c3=C2O)NC(=O)/C(C)=C\C=C\[C@H](C)[C@H](O)[C@@H](C)[C@@H](O)[C@@H](C)[C@H](OC(C)=O)[C@@H]1C,,MIC,Atencio,,,0.001 µg/mL
CCCCCCn1c(C)c(CN2CCN(C)CC2)c(CN2CCN(C)CC2)c1-c1ccc(Cl)cc1,,inhibition,H37Rv,,12.5 µg/mL,98%
COC(CC1(OC)OC(=O)C=C1N)OC,,inhibition,H37Rv,BACTEC,12.5 µg/mL,3%
Fc1ccc2nc(CCc3cc(Cl)cc(Cl)c3)[nH]c2c1,,MIC,H37Rv,broth dilution,,>100 µg/mL
NNC(=O)c1ccncc1,,MIC,S-24M (susceptible),,,0.025 µg/mL
CN[C@@H]1[C@H](O[C@H]2[C@H](O[C@H]3[C@H](O)[C@@H](O)[C@H](N=C(N)N)[C@@H](O)[C@@H]3N=C(N)N)O[C@@H](C)[C@]2(O)C=O)O[C@@H](CO)[C@H](O)[C@H]1O,,MIC,U115,,,0.25 µg/mL
Cc1ccc(C)n1Cc1ccccc1,,MIC,103471,,,8 µg/mL
CC(C)=CCNc1sc(-c2ccc(OCc3c(Cl)cccc3Cl)cc2)cc1C(=O)O,,MIC,H37Rv,resazurin,,15.1 µM
O=c1[nH]c2cc(C(F)(F)F)ccc2nc1C(F)(F)F,,inhibition,,,12.5 µg/mL,inactive
CC(=O)c1cc2cc3c4c(c2oc1=O)CCCN4CCC3,,MIC,H37Rv,BACTEC,,≥12.5 µg/mL
NNC(=O)c1ccncc1,gyrB mutant fluoroquinolone resistant,MIC,FQ-R1,resazurin,,0.088 µg/mL
CCCCS(=O)(=O)Nc1ccc2[nH]c(C(=O)N(C)Cc3ccccc3)c(C)c2c1,,MIC90,H37Rv,resazurin,,12.5 µM
CC(=O)NC[C@H]1CN(c2ccc(N3CCOCC3)c(F)c2)C(=O)O1,,MIC,35 strains,,,>16 µg/mL
O=C1OCC2=Nc3cccc4cccc(c34)N12,,inhibition,H37Rv,BACTEC,12.5 µg/mL,-14%
Cc1ccc2c(N3CCOCC3)c(Cc3ccccc3)c(N3CCCCC3)nc2n1,,EC50,H37Rv,BACTEC,,>6.25 µg/mL
C/C(=N\NC(=S)N(C)C)c1ccccn1.[Cu][Br],,MIC90,V4207,,,6.25 µM
O=c1[nH]c2nc(N3CCNCC3)ccc2cc1-c1ccccc1,,inhibition,H37Rv,BACTEC,6.25 µg/mL,11%
Cc1ccc(-c2ccc(Cl)cc2)n1Cc1ccccc1,,MIC,103471,,,4 µg/mL
Oc1ccc(NC(=S)S)cc1,,MIC,H37Rv,BACTEC,,≥12.5 µg/mL
Cc1c(CN2CCOCC2)cc(-c2ccc(Cl)cc2)n1C1CCCCC1,,MIC,H37Rv,,,<12.5 µg/mL
O=c1[nH]c2ccc(C(F)(F)F)cc2nc1CBr,,EC50,,,,>12.5 µg/mL
O=C(Nc1nncs1)c1cnccn1,,MIC,H37Rv,BACTEC,,≥12.5 µg/mL
Cc1c(CN2CCOCC2)c(CN2CCOCC2)c(-c2ccc(Cl)cc2)n1Cc1ccccc1,,inhibition,H37Rv,,12.5 µg/mL,99%
CCCCS(=O)(=O)Nc1ccc2[nH]c(C(=O)NCC3CC3)c(C)c2c1,,MIC90,H37Rv,resazurin,,1.6 µM
O=c1[nH]c2cc(F)c(F)cc2nc1CBr,,inhibition,,,12.5 µg/mL,inactive
Cc1c(CN2CCN(C)CC2)cc(-c2ccc(Cl)cc2)n1C1CCCCC1,,MIC,H37Rv,,,<12.5 µg/mL
NCc1ccccc1,,MIC,H37Rv,,,250 µg/mL
CC[C@H]1OC(=O)[C@H](C)C(=O)[C@H](C)[C@@H](O[C@@H]2O[C@H](C)C[C@H](N(C)C)[C@H]2O)[C@](C)(OC)C[C@@H](C)C(=O)[C@H](C)[C@H]2N(NCCCc3ccnc4ccccc34)C(=O)O[C@]12C,,MIC,Isolate 900216,,,10 µg/mL
CCCCS(=O)(=O)Nc1ccc2[nH]c(C(=O)NCc3ccccc3Cl)c(C)c2c1,,MIC90,H37Rv,resazurin,,3.13 µM
O=C(O)c1cn(C2CC2)c2cc(N3CCN(/N=C/c4ccc(F)cc4)CC3)c(F)cc2c1=O,,MIC90,H37Rv,fluorescence,,0.86 µM
CCCC(=O)OCC(CSC(=O)CCC)SC(=O)CCC,,MIC,H37Rv,,,6.25 µg/mL
CCCCS(=O)(=O)Nc1ccc2[nH]c(C(=O)N3CCC3)c(C)c2c1,,MIC90,H37Rv,resazurin,,0.78 µM
C=C1C(=O)OC2CC3(C)C(O)CCC(C)(O)C3CC12,,MIC bound,H37Rv,BACTEC,,>12.5 µg/mL
C[C@H]1[C@H](C)Oc2c3c(c4c(c2[C@H]1O)OC(=O)CC4c1ccccc1)OC(C)(C)C=C3,,inhibition,H37Rv,BACTEC,12.5 µg/mL,99%
O=C(OCC(S)CS)c1ccccc1,,MIC,H37Rv,,,12.5 µg/mL
CC#CC#C/C=C1\C=CC2(CCCCO2)O1,,MIC bound,H37Rv,BACTEC,,>12.5 µg/mL
OCC(S)CSCC(S)CS,,MIC,H37Rv,,,25–50 µg/mL
O=C1CCC2=C3C4CCCCC4C(=O)C4CCCC(OC2C1)C34,,MIC bound,H37Rv,BACTEC,,≤12.5 µg/mL
Cc1ccn2nc(C)c(C(=O)NCc3ccc(-c4ccc(OC(F)(F)F)cc4)nc3)c2c1,rpoB mutant rifampicin-resistant,MIC,RIF-R1,resazurin,,0.009 µg/mL
C=CC1CC(NC(=O)OC)C(=O)O1,,inhibition,H37Rv,BACTEC,12.5 µg/mL,-5%
CC(C)N(C)N1CCN(c2cc3c(cc2F)c(=O)c(C(=O)O)cn3C2CC2)CC1,,MIC90,H37Rv,fluorescence,,0.6 µM
Cc1c(N2C[C@@H](N)C3(CC3)C2)c(F)c(N)c2c(=O)c(C(=O)O)cn(C3CC3)c12,,MIC90,23 strains (rifampin- isoniazid-susceptible),,,0.78 µg/mL
O=C(Nc1sc(-c2ccc(OCc3c(Cl)cccc3Cl)cc2)cc1C(=O)O)c1ccccc1Cl,,MIC,H37Rv,resazurin,,96 µM
O=C(NN1CCN(c2cc3c(cc2F)c(=O)c(C(=O)O)cn3C2CC2)CC1)c1cccc(B(O)O)c1,,MIC90,H37Rv,fluorescence,,>50 µM
CO[C@H]1/C=C/O[C@@]2(C)Oc3c(C)c(O)c4c(O)c(c(/C=N/N5CCN(C)CC5)c(O)c4c3C2=O)NC(=O)/C(C)=C\C=C\[C@H](C)[C@H](O)[C@@H](C)[C@@H](O)[C@@H](C)[C@H](OC(C)=O)[C@@H]1C,,MIC,38396,,,<2 µg/mL
CCCCCS(=O)(=O)Nc1ccc2[nH]cc(C)c2c1,,MIC90,H37Rv,resazurin,,1.56 µM
CC1Oc2cc3c(-c4c(O)cc(O)c5c(O)c6c(cc45)OC(C)C(C)C6=O)c(O)cc(O)c3c(O)c2C(=O)C1C,,MIC,H37Rv,BACTEC,,≥12.5 µg/mL
O=C(Nc1sc(-c2ccc(OCc3c(Cl)cccc3Cl)cc2)cc1C(=O)O)c1ccccc1,,MIC,H37Rv,resazurin,,10.6 µM
CC(=O)SC(C)C1CS1,,MIC,H37Rv,,,25–50 µg/mL
CC(=O)Oc1ccn2nc(C)c(Br)c2c1,,MIC bound,H37Rv,resazurin,,>6.25 µg/mL
O=C(O)c1cn(C2CC2)c2cc(N3CCN(/N=C/c4ccc(OC(F)(F)F)cc4)CC3)c(F)cc2c1=O,,MIC90,H37Rv,fluorescence,,3.4 µM
CCCCNCc1cccc([N+](=O)[O-])c1,,MIC,H37Rv,,,60 µg/mL
O=C(Nc1sc(-c2ccc(OCc3ccccc3Cl)cc2)cc1C(=O)O)c1ccc(Cl)cc1,,EC50,H37Rv,resazurin,,84.31 µM
NC(=O)c1cnccn1,,MIC,Isolate 192,broth dilution,,>400 µg/mL
CC(=O)CCC(=O)SCC1CS1,,MIC,H37Rv,,,25 µg/mL
O=C1OC(=O)C2C1C(c1ccccc1)N1C3C(=O)OC(=O)C3C(c3ccccc3)N21,,MIC bound,H37Rv,BACTEC,,>12.5 µg/mL
CCC(=O)SCC1CS1,,MIC,H37Rv,,,1.56 µg/mL
CCCCNCc1ccc(N(C)C)cc1,,MIC,H37Rv,,,60 µg/mL
CCN(CC)Cc1cc(Nc2cc(Cl)c3ccc(N(C)C)cc3n2)ccc1O.Cl.Cl.Cl,,inhibition,H37Rv,BACTEC,12.5 µg/mL,99%
CCCCS(=O)(=O)Nc1ccc2[nH]c(C#N)c(C)c2c1,I122S DG167-resistant,MIC90,DRM167 16x6,resazurin,,>100 µM
CCCCCCn1c(C)ccc1-c1ccc(Cl)cc1,,MIC,H37Rv,,,<12.5 µg/mL
CN(C)c1cc2nc3ccccc3nc2cc1O,,inhibition,H37Rv,BACTEC,12.5 µg/mL,99%
COc1cccc2c1cc1c3c(cc4c(c32)OCO4)C(=O)N1,,MIC,H37RvSr,resazurin,,25 µg/mL
COc1cccc(C(=O)Nc2sc(-c3ccc(OCc4c(Cl)cccc4Cl)cc3)cc2C(=O)O)c1,,EC50,H37Rv,resazurin,,62.13 µM
Clc1ccc2c(N3CCOCC3)cc(N3CCOCC3)nc2n1,,EC50,H37Rv,BACTEC,,>6.25 µg/mL

The last 6 rows once more:

CCCCS(=O)(=O)Nc1ccc2[nH]c(C#N)c(C)c2c1 ; changes: I122S DG167-resistant ; read-out: MIC90 ; strain or isolate: DRM167 16x6 ; method: resazurin ; result: >100 µM
CCCCCCn1c(C)ccc1-c1ccc(Cl)cc1 ; read-out: MIC ; strain or isolate: H37Rv ; result: <12.5 µg/mL
CN(C)c1cc2nc3ccccc3nc2cc1O ; read-out: inhibition ; strain or isolate: H37Rv ; method: BACTEC ; dose: 12.5 µg/mL ; result: 99%
COc1cccc2c1cc1c3c(cc4c(c32)OCO4)C(=O)N1 ; read-out: MIC ; strain or isolate: H37RvSr ; method: resazurin ; result: 25 µg/mL
COc1cccc(C(=O)Nc2sc(-c3ccc(OCc4c(Cl)cccc4Cl)cc3)cc2C(=O)O)c1 ; read-out: EC50 ; strain or isolate: H37Rv ; method: resazurin ; result: 62.13 µM
Clc1ccc2c(N3CCOCC3)cc(N3CCOCC3)nc2n1 ; read-out: EC50 ; strain or isolate: H37Rv ; method: BACTEC ; result: >6.25 µg/mL